According to patent US20080058275, “Rna Interferases And Methods Of Use Thereof” (published 2008):

Biological target: (His)6MazE(L55A/L58A) (Escherichia coli) (UniProt P0AE72)
Assay: EMSA
Conditions: 4 uM; no supershift with MazF; purified recombinant protein; protein details: N-terminal His6; label: 32P

GCTCGTATCTACAATGTAGATTGATATATACTGTATCTACATATGATAGC (double strand) [mazEF promoter 50-bp]
binding result: binds

The exact form of at least one protein or probe is not confirmed.
